A mixed list of measured activities; the numbers were collected in NIAID ChemDB.

Common to all: growth or infection tests; agent: Epstein-Barr virus; read by: hybridisation; measure: EC50

Lines come from different laboratories, so protocols vary. ECn: concentration that inhibits the pathogen or its effect by n%.

Nc1nc(Cl)nc2c1ncn2/C=C1\CC1CO ; cell line: H-1 ; value: >20 µM
C=CCNc1ncnc2c1ncn2C[C@@H](C)OCP(=O)(O)O ; cell line: P3HR-1 ; value: 1.5 µg/mL
Nc1[nH]c(=O)nc2c1ncn2/C=C1/C[C@H]1CO ; cell line: H-1 ; value: >20 µM
O=c1[nH]c(=O)n([C@H]2C[C@H](O)[C@@H](COP3(=O)OCc4cc(-c5ccccc5)ccc4O3)O2)cc1/C=C/Br ; value: 24.1 µg/mL
Nc1nc(NC2CC2)c2ncn(C=C3CC3CO)c2n1 ; cell line: H-1 ; value: 4 µM
CCN(C)CCNc1ncnc2c1ncn2C[C@H](C)OCP(=O)(O)O ; cell line: P3HR-1 ; value: 5 µg/mL
Cc1cccc2c1OP(=O)(OC[C@H]1O[C@@H](n3cc(/C=C/Br)c(=O)[nH]c3=O)C[C@@H]1OC(=O)[C@@H](N)CC(C)C)OC2 ; value: 17.1 µg/mL
O=C(O)c1ccc(NS(=O)(=O)c2ccc(NC3=CC(=O)c4ccccc4C3=O)cc2)cc1 ; cell line: P3HR-1 ; value: 2.2 µg/mL
NC(=O)c1ncn([C@@H]2O[C@H](CO)[C@@H](O)[C@H]2O)n1 ; cell line: P3HR-1 ; value: >50 µg/mL
C[C@@H](N)C(=O)O[C@H]1C[C@H](n2cc(/C=C/Br)c(=O)[nH]c2=O)O[C@@H]1COP1(=O)OCc2ccccc2O1 ; value: 8.08 µg/mL
COC(=O)[C@H](C)NP(=O)(OC[C@H]1C/C1=C\n1cnc2c(=O)[nH]c(N)nc21)Oc1ccccc1 ; cell line: H-1 ; value: 8 µM
Cc1cn([C@H]2C[C@H]([N+](=O)[O-])[C@@H](CO)O2)c(=O)[nH]c1=O ; cell line: P3HR-1 ; value: 50 µg/mL
Nc1nc2c(ncn2COC(CO)CO)c(=O)[nH]1 ; cell line: P3HR-1 ; value: 0.2 µg/mL
O=c1[nH]c(=O)n([C@H]2C[C@H](O)[C@@H](COP3(=O)OCc4ccccc4O3)O2)cc1/C=C/Br ; value: 6.68 µg/mL
Nc1ccn(C[C@@H](CO)OCP(=O)(O)O)c(=O)n1 ; cell line: P3HR-1 ; value: 0.4 µg/mL
COC(=O)[C@H](C)NP(=O)(OCC1C/C1=C\n1cnc2c(N)ncnc21)Oc1ccccc1 ; cell line: H-1 ; value: 4 µM
Cc1cccc2c1OP(=O)(OC[C@H]1O[C@@H](n3cc(/C=C/Br)c(=O)[nH]c3=O)C[C@@H]1OC(=O)[C@@H](C)N)OC2 ; value: 17.7 µg/mL

A second listing of 2 rows from above:

smiles	cell line	value
CCN(C)CCNc1ncnc2c1ncn2C[C@H](C)OCP(=O)(O)O	P3HR-1	5 µg/mL
Nc1nc(NC2CC2)c2ncn(C=C3CC3CO)c2n1	H-1	4 µM